Test results from ChEMBL document CHEMBL1152129, “Quantitative structure-activity relationship and complex network approach to monoamine oxidase A and B inhibitors” (J Med Chem, 2008).

Protein sequences, listed by entry. Tags and fused reporters are not part of them. Residues count along the entry.
UniProt P21397, whole entry, looked up: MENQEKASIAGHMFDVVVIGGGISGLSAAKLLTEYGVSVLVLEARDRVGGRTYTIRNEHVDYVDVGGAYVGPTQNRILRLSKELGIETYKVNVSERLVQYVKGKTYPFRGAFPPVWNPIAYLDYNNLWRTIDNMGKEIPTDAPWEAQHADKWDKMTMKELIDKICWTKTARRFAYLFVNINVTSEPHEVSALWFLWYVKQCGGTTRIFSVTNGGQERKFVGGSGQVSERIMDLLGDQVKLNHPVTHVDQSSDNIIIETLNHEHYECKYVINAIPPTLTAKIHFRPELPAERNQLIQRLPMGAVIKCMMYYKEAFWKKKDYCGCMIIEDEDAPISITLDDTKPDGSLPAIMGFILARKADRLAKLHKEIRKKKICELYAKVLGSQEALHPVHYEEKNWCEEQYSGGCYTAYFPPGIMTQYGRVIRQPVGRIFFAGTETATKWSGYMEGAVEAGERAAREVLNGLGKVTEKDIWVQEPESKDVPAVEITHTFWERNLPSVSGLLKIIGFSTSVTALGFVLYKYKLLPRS
UniProt P27338, 2-520 limits assumed: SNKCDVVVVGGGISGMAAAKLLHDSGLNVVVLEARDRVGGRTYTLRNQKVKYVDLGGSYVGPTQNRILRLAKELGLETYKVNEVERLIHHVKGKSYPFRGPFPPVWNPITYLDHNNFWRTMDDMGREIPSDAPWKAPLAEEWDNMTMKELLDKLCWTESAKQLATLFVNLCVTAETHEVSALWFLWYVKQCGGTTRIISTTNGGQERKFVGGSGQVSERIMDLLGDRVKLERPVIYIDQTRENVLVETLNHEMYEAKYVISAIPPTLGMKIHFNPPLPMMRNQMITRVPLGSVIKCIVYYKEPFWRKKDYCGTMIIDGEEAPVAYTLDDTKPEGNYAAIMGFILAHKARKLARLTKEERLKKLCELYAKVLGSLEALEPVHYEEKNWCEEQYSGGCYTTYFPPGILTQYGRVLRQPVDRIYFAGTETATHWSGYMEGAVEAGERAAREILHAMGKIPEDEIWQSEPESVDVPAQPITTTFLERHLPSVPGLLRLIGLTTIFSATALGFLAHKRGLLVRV

What was measured:
[1] = molecular target: T1, Amine oxidase [flavin-containing] A (Homo sapiens, UniProt P21397); test: Inhibition of human recombinant MAOA at 100 uM by fluorimetric method
[2] = molecular target: T1, Amine oxidase [flavin-containing] A; test: Inhibition of human liver MAOA
[3] = molecular target: Amine oxidase [flavin-containing] B (Homo sapiens, UniProt P27338); test: Inhibition of human liver MAOB
[4] = molecular target: T1, Amine oxidase [flavin-containing] A; test: Inhibition of human recombinant MAOA by fluorimetric method

SMILES: O=P(NCCCO)(OCCCl)N(CCCl)CCCl (stereo not given)
- Activity [1]: Not Active
- Activity [2]: Not Active
- Activity [3]: Not Active

SMILES: O[C@@H]([C@H](O)[C@H](O)CNCCCl)[C@H](O)CNCCCl
- Activity [4]: Not Active

SMILES: O=C(O)Cc1ccc(N(CCCl)CCCl)cc1
- Activity [4]: Not Active
